This note sets out measurements from patent US20230158104A1, “COMPOUNDS FOR USE IN AUTOIMMUNE CONDITIONS” (priority 2020, published 2023).

Where only a bound is given, the exact number is not on record here.

The experiment relates to COVID-19. It counts as in vivo, human. The settings on record: individual patients, PLD 1.5 mg×3. On the procedure: All patients received the following prophylactic medications 20-30 minutes before the infusion of plitidepsin: • Diphenhydramine hydrochloride 25 mg iv or equivalent. • Ranitidine 50 mg iv or equivalent. • Dexamethasone 6.6 mg intravenous. • Ondansetron 8 mg i.v. in slow infusion of 15 minutes or equivalent.
Patients included in the study will receive treatment for 3 days.

Regarding “(−)-(3S,6R,7S,10R,11S,15S,17S,20S,25aS)-11-hydroxy-3-(4-methoxybenzyl)-2,6,17-trimethyl-15-(1-methylethyl)-7-[[(2R)-4-methyl-2-[methyl[[(2S)-1-(2-oxopropanoyl)pyrrolidin-2-yl]carbonyl]amino]pentanoyl]amino]-10-[(1S)-1-methylpropyl]-20-(2-methylpropyl)tetradecahydro-15H-pyrrolo[2,1-f]-[1,15,4,7,10,20]dioxatetrazacyclotricosine-1,4,8,13,16,18,21(17H)-heptone [PLD]”, the “Hospital discharge by day” value was at most 7 days and the clinical outcome was “Acute clinical improvement”.
